Results of unrelated studies side by side (data: NIAID ChemDB).

All rows: tests in culture; species: HIV-2; cells: MT-4; endpoint: EC50

ECn is the concentration giving n% inhibition of infection, replication or growth. An empty or dashed field is not shown. Conditions beyond the fields shown may differ between rows.

smiles,strain or isolate,mutations,method,result
Cc1ccnc2c1NC(=O)c1cccnc1N2C1CC1,ROD,-,RT activity,>4 µg/mL
Nc1nc(N)c2ncn(CCOCP(=O)(O)O)c2n1,LAV-2,-,cytopathic effect / trypan blue,1.2 µM
CNc1nc(NC)c2ncn([C@H]3C=C[C@@H](OCP(=O)(O)O)O3)c2n1,ROD,-,RT activity,>125 µg/mL
CCSC[C@H]1O[C@@H](n2cc(C)c(=O)[nH]c2=O)C[C@@H]1N=[N+]=[N-],ROD,-,-,0.93 µg/mL
COc1c(O)c(I)c2c(c1OC)-c1c(c(I)c(O)c(OC)c1OC)C[C@H](C)[C@H](C)C2,CBL-20,-,cytopathic effect / MTT,>16 µM
CSc1nc(N)c2ncn([C@H]3C=C[C@@H](OCP(=O)(O)O)O3)c2n1,ROD,-,RT activity,31.9 µg/mL
Cc1cn(Cc2nc3n(n2)CCCCCC3)c(=O)[nH]c1=O,ROD,-,-,>65 µg/mL
O=C(CSc1nncnc1-c1ccccc1Cl)Nc1ccccc1Br,ROD,-,MTT,>73 µM
Cn1ncc2c1S(=O)(=O)N(Cc1cccc(Cl)c1)C(=O)N2Cc1ccccc1Br,ROD,-,cytopathic effect / MTT,>252.3 µM
C1CNCCNCCCN(CCCN2CCCNCCNCCCNCC2)CCNC1,EHO,-,cytopathic effect / MTS,1.74 µM
O=c1[nH]n(-c2nc3ccccc3c(=O)n2-c2ccncc2)c(=O)c2ccccc12,ROD,-,visual reading,100 µM
C1CNCCNCCCN[C@H]([C@@H]2CNCCCNCCNCCCN2)CNC1,ROD,-,cytopathic effect / MTT,1.01 µM
CCOCn1c(Sc2cc(C)cc(C)c2)c(CC)c(=O)[nH]c1=S,EHO,-,cytopathic effect / MTT,>100 µM
O=c1[nH]c(=O)n([C@H]2C[C@H](F)[C@@H](CO)O2)cc1I,LAV-2,-,cytopathic effect,0.23 µM
C1CNCCNCCCN(CCCN2CCCNCCNCCCNCC2)CCNC1,EHO,-,cytopathic effect / MTT,1.37 µM
CC(C)Nc1cccnc1N1CCN(C(=O)c2cc3cc(NS(C)(=O)=O)ccc3[nH]2)CC1,EHO,RT-S102L,cytopathic effect / MTT,>47.3 µM
Cc1cn([C@H]2C[C@@H]3[C@@H](COCN3O)O2)c(=O)[nH]c1=O,ROD,-,trypan blue,4.3 µg/mL
Nc1nc2c(ncn2CC(CF)OCP(=O)(O)O)c(=O)[nH]1,LAV-2,-,cytopathic effect / trypan blue,10 µM
CCOCn1c(Cc2cc(C)cc(C)c2)c(CC)c(=O)[nH]c1=O,ROD,-,cytopathic effect / MTT,>249 µM
Cn1ncc2c1S(=O)(=O)N(Cc1cccc(Cl)c1)C(=O)N2Cc1ccc(F)cc1,ROD,-,cytopathic effect / MTT,>216.1 µM
Cc1cn([C@@H]2O[C@H](CO[Si](C)(C)C(C)(C)C)[C@@]3(OS(=O)(=O)C=C3N)[C@H]2O[Si](C)(C)C(C)(C)C)c(=O)[nH]c1=O,ROD,-,cytopathic effect / trypan blue,>10 µM
CC(=O)OC[C@H]1O[C@@H](n2cc(C)c(=O)[nH]c2=O)C[C@@H]1N(C)OC(C)=O,ROD,-,trypan blue,75 µg/mL
Cc1cn([C@H]2C[C@H](N=[N+]=[N-])[C@@H](CO)O2)c(=O)[nH]c1=O,ROD,-,cytopathic effect / MTT,0.0006 µg/mL
Cc1cn([C@H]2C[C@H](N=[N+]=[N-])[C@@H](CO)O2)c(=O)[nH]c1=O,ROD,-,cytopathic effect / MTT,0.0028 µM
O=C(CSc1nncnc1-c1ccccc1Cl)Nc1ccccc1Cl,ROD,-,MTT,>90 µM
O=c1[nH]c(=O)n([C@H]2C[C@H](F)[C@@H](CO)O2)cc1Cl,LAV-2,-,cytopathic effect,0.69 µM
Cc1cn([C@@H]2O[C@H](CO[Si](C)(C)C(C)(C)C)[C@@H](O)[C@H]2O[Si](C)(C)C(C)(C)C)c(=O)n(CC#N)c1=O,ROD,-,cytopathic effect / trypan blue,>2 µM
CCOCn1c(Cc2ccccc2)c(C(C)C)c(=O)[nH]c1=O,ROD,-,cytopathic effect / MTT,9.3 µM
Cc1ccc(NC(=O)CSc2nncnc2-c2ccccc2Cl)c([N+](=O)[O-])c1,ROD,-,MTT,>158 µM
CC(C)(C)[Si](C)(C)OC[C@@H]1CC[C@H](n2cnc3c(=O)n(CC(=O)OCc4ccccc4)cnc32)O1,ROD,-,cytopathic effect / trypan blue,>10 µM
Nc1ccn([C@H]2CC[C@@H](CO)O2)c(=O)n1,ROD,-,MTT,1.3 µM
C=CCn1c(C(=O)c2cccc3ccccc23)c(C(C)C)c(=O)[nH]c1=O,ROD,-,cytopathic effect / MTT,>37 µM
Cc1cn([C@H]2C[C@H](N=[N+]=[N-])[C@@H](CO)O2)c(=O)[nH]c1=O,CBL-20,-,cytopathic effect / MTT,0.024 µM
NC(=O)c1ccc(NC2=NS(=O)(=O)NC(Cc3ccccc3)=C2)cc1,ROD,-,MTT,>286 µM
COCn1c(C(=O)c2cccc3ccccc23)c(C(C)C)c(=O)[nH]c1=O,ROD,-,cytopathic effect / MTT,>42.98 µM
Cc1cn([C@H]2C[C@@H](N=[N+]=[N-])[C@@H](CO)O2)c(=O)[nH]c1=O,ROD,-,MTT,0.004 µM
C1CNCCNCCCNCCNC1.O=S(=O)([O-])[O-].[O]=[V+2],ROD,-,MTT,>340 µM
COC(=O)CCn1c(=O)c(C)cn([C@@H]2O[C@H](CO[Si](C)(C)C(C)(C)C)[C@@H](O)[C@H]2O[Si](C)(C)C(C)(C)C)c1=O,ROD,-,cytopathic effect / trypan blue,>10 µM
C#CCn1c(C(=O)c2cccc3ccccc23)c(C(C)C)c(=O)[nH]c1=O,ROD,-,cytopathic effect / MTT,>4.1 µM
Cc1cn(Cc2nc(C)n(C)n2)c(=O)[nH]c1=O,ROD,-,-,>53 µg/mL
Cc1cc(C)c(Oc2ccc([N+](=O)[O-])c(NC3CCN(Cc4ccncc4)CC3)n2)c(C)c1,ROD,-,MTT,>279 µM
CCN(C)C1=NS(=O)(=O)NC(Cc2ccc3ccccc3c2)=C1,ROD,-,MTT,>195 µM
CCOCn1c(Sc2cc(C)cc(C)c2)c(CC)c(=O)[nH]c1=O,EHO,-,cytopathic effect / MTT,>100 µM
Cc1cn([C@H]2C[C@@H](N=[N+]=[N-])[C@@H](CO)O2)c(=O)[nH]c1=O,ROD,-,MTT,>0.006 µM
Cn1ncc2c1S(=O)(=O)N(Cc1cccc(Cl)c1)C(=O)N2Cc1ccc(Cl)cc1Cl,ROD,-,cytopathic effect / MTT,>257.5 µM
Nc1ncnc2c1ncn2CC(CF)OCP(=O)(O)O,LAV-2,-,cytopathic effect / trypan blue,11 µM
COc1ccccc1NC1=NS(=O)(=O)NC(Cc2ccccc2)=C1,ROD,-,MTT,>268 µM
Cc1cn([C@H]2C=C[C@@H](CO[Si](C)(C)C(C)(C)C)O2)c(=O)n(CC(=O)O)c1=O,ROD,-,cytopathic effect / trypan blue,>50 µM
Cc1cc(C#N)cc(C)c1Oc1ccc([N+](=O)[O-])c(NC2CCN(Cc3ccncc3)CC2)n1,ROD,-,MTT,>6.7 µM
CCc1c(C(=O)c2cccc3ccccc23)n(CC(=O)OC)c(=O)[nH]c1=O,ROD,-,cytopathic effect / MTT,>168 µM
COC(=O)C(Cc1ccccc1)NC(=O)[C@@H](NC(=O)[C@@H](C[C@H](O)[C@H](CC1CCCCC1)NC(=O)[C@@H](NC(=O)[C@H](Cc1ccccc1)CS(=O)(=O)C(C)(C)C)C(C)C)C(C)C)C(C)C,EHO,RT-S102L E219D,cytopathic effect / MTT,21.4 µM
COc1c(O)cc([C@H]2Oc3cc(O)cc(O)c3[C@@H](c3c(O)cc(O)c4c3O[C@H](c3cc(O)c(OC)c(O)c3)[C@H](O)C4)[C@@H]2O)cc1O,ROD,-,MTT,>7.58 µg/mL
O=c1[nH]c(=O)n([C@H]2C[C@H](F)[C@@H](CO)O2)cc1Br,LAV-2,-,cytopathic effect,0.54 µM
c1ccc(CNCc2ccc(CN3CCCNCCNCCCNCC3)cc2)nc1,EHO,-,cytopathic effect / MTS,0.0123 µM
O=S1(=O)NC(Cc2ccc3ccccc3c2)=CC(=NC2CC2)N1,ROD,-,MTT,>218 µM
CCc1c(C(=O)c2cccc3ccccc23)n(C/C=C/c2ccccc2)c(=O)[nH]c1=O,ROD,-,cytopathic effect / MTT,>28.71 µM
Cc1cc(C)c(Oc2ccc(N)c(NC3CCN(Cc4ccc(C(N)=O)cc4)CC3)n2)c(C)c1,ROD,-,MTT,>26 µM
C=CCn1c(-n2[nH]c(=O)c3ccccc3c2=O)nc2ccccc2c1=O,ROD,-,visual reading,100 µM
O=S1(=O)N=C(Nc2ccc(Br)cc2)C=C(Cc2ccccc2)N1,ROD,-,MTT,>163 µM
Cc1c(Sc2ccccc2)n(COCCO)c(=O)[nH]c1=O,EHO,-,cytopathic effect / MTT,>250 µM
Cc1ccc(-n2c(-n3[nH]c(=O)c4ccccc4c3=O)nc3ccccc3c2=O)cc1,ROD,-,visual reading,100 µM
N=c1ncn([C@H]2CC[C@@H](CO)O2)c2nc[nH]c12,-,-,-,321 µM
Cc1cn([C@@H]2O[C@H](CO[Si](C)(C)C(C)(C)C)C3(OS(=O)(=O)C=C3N)[C@H]2O[Si](C)(C)C(C)(C)C)c(=O)n(CC(=O)N[C@@H](C)C(=O)O)c1=O,ROD,-,cytopathic effect / trypan blue,32 µM
O=S1(=O)N=C(Nc2ccccc2)C=C(Cc2ccccc2)N1,ROD,-,MTT,>292 µM
C1CNCCNCCCN(CCCC2CNCCCNCCNCCCN2)CCNC1,ROD,-,cytopathic effect / MTT,3.56 µM
Cn1ncc2c1S(=O)(=O)N(Cc1cccc(Cl)c1)C(=O)N2CC#N,ROD,-,cytopathic effect / MTT,>17.6 µM
C[C@H](Cn1cnc2c(N)ncnc21)OCP(=O)(O)O,ROD,-,cytopathic effect,3.48 µM
Cc1cc(C)c(Oc2ccc(N)c(NC3CCN(Cc4ccc(S(C)(=O)=O)cc4)CC3)n2)c(C)c1,ROD,-,MTT,>28 µM
Cn1ncc2c1S(=O)(=O)N(Cc1cccc(Cl)c1)C(=O)N2Cc1ccc(Br)cc1,ROD,-,cytopathic effect / MTT,>252.3 µM
Cc1cc(C)c(Oc2ccc(N)c(NC3CCN(Cc4ccncc4)CC3)n2)c(C)c1,ROD,-,MTT,>30 µM
Cn1ncc2c1S(=O)(=O)N(Cc1cccc(Cl)c1)C(=O)N2Cc1ccccc1,ROD,-,cytopathic effect / MTT,>300.1 µM
COc1ccc(CCN=C2C=C(Cc3ccc4ccccc4c3)NS(=O)(=O)N2)cc1,ROD,-,MTT,>159 µM
Cc1cc(C)c(Oc2ccc([N+](=O)[O-])c(NC3CCN(Cc4ccc(C(N)=O)cc4)CC3)n2)c(C)c1,ROD,-,MTT,>19 µM

A second listing of 8 rows from above:

smiles,strain or isolate,mutations,method,result
CC(=O)OC[C@H]1O[C@@H](n2cc(C)c(=O)[nH]c2=O)C[C@@H]1N(C)OC(C)=O,ROD,-,trypan blue,75 µg/mL
c1ccc(CNCc2ccc(CN3CCCNCCNCCCNCC3)cc2)nc1,EHO,-,cytopathic effect / MTS,0.0123 µM
O=S1(=O)NC(Cc2ccc3ccccc3c2)=CC(=NC2CC2)N1,ROD,-,MTT,>218 µM
Cc1cn([C@H]2C[C@@H]3[C@@H](COCN3O)O2)c(=O)[nH]c1=O,ROD,-,trypan blue,4.3 µg/mL
Cc1ccc(NC(=O)CSc2nncnc2-c2ccccc2Cl)c([N+](=O)[O-])c1,ROD,-,MTT,>158 µM
O=c1[nH]c(=O)n([C@H]2C[C@H](F)[C@@H](CO)O2)cc1Cl,LAV-2,-,cytopathic effect,0.69 µM
C=CCn1c(-n2[nH]c(=O)c3ccccc3c2=O)nc2ccccc2c1=O,ROD,-,visual reading,100 µM
Cc1cn(Cc2nc(C)n(C)n2)c(=O)[nH]c1=O,ROD,-,-,>53 µg/mL